Experimental findings from patent US20240122867A1, “CORONAL PROTEIN-COATED NANOPARTICLES AND USES THEREOF” (UNIVERSITY OF CENTRAL FLORIDA RESEARCH FOUNDATION, INC., priority 2021, published 2024) are described below.

First the molecules themselves.
B1: Serine protease inhibitor A3M (protein, UniProt Q03734 21-418, looked up)
Serine protease inhibitor A3M: FSDDTWGIDILLHKNQESGTPDDSLTLASINTDFAFSLYKKMALKNPDKNIVFSPLSISAALALVSLGAKGNTLEEILEGLKFNLTETSEADIHQGFGHLLQRLSQPEDQDQINIGNAMFIEKDLQILAEFHEKTRALYQTEAFTADFQQPTEATKLINDYVSNQTQGMIKKLISELDDRTLMVLVNYIYFKGKWKISFDPQDTFESEFYLDEKRSVKVPMMKMKFLTTRHFRDEELSCSVLELKYTGNASALFILPDQGRMQQVEASLQPETLRKWWKSLKTRKIGELYLPKFSISTDYNLKDILPELGIKEIFSKQADLSGITGTKDLSVSQVVHKAVLDVAETGTEAAAATGFIFGFRSRRLQTMTVQFNRPFLMVISHTGVQTTLFMAKVTNPK
B2: Angiotensinogen (protein, UniProt P11859 25-477, looked up)
Angiotensinogen: DRVYIHPFHLLYHNKSTCAQLENPSVETLPESTFEPVPIQAKTSPVNEKTLHDQLVLAAEKLEDEDRKRAAQVAMIANFVGFRMYKMLNEAGSGASGAILSPPALFGTLVSFYLGSLDPTASQLQTLLDVPVKEGDCTSRLDGHKVLAALRAVQGLLVTQGGSSSQTPLLQSIMVGLFTAPGFRLKHSFVQSLALFTPALFPRSLDLSTDPVLATEKINRFIKAVTGWKMNLPLEGVSTDSTLLFNTYVHFQGTMRGFSQLPGVHEFWVDNSISVSVPMISGTGNFQHWSDAQNNFSVTCVPLGERATLLLIQPHCTSDLDRVEALIFRNDLLTWIENPPPRAIRLTLPQLEIRGSYNLQDLLAEDKLPTLLGAEANLSNIGDTNPRVGEVLNSILLELKAGEEEQPTTSVQQPGSPEALDVTLSSPFLFAIYEQDSGTLHFLGRVNNPQSVV
B3: Dual specificity protein phosphatase 3 (protein, UniProt Q9D7X3 1-185, looked up)
Dual specificity protein …: MSSSFELSVQDLNDLLSDGSGCYSLPSQPCNEVVPRVYVGNASVAQDITQLQKLGITHVLNAAEGRSFMHVNTSASFYEDSGITYLGIKANDTQEFNLSAYFERATDFIDQALAHKNGRVLVHCREGYSRSPTLVIAYLMMRQKMDVKSALSTVRQNREIGPNDGFLAQLCQLNDRLAKEGKVKL
B4: Flavin reductase (NADPH) (protein, UniProt Q923D2 1-206, looked up)
Flavin reductase (NADPH): MTVKKIAIFGATGRTGLTTLAQAVQAGYEVTVLVRDSSRLPSEGPQPAHVVVGDVRQAADVDKTVAGQEAVIVLLGTGNDLSPTTVMSEGTRNIVTAMKAHGVDKVVACTSAFLLWDPTKVPPRLQDVTDDHIRMHKILQESGLKYVAVMPPHIGDQPLTGAYTVTLDGRGPSRVISKHDLGHFMLRCLTTNEYDGHTTYPSHQYD
B5: Apolipoprotein A-V (protein, UniProt Q8C7G5 21-368, looked up)
Apolipoprotein A-V: RKSLWDYFSQNSWSKGVMGQPQKLAQENLKGSFEQDLYNMNNYLEKLGPLRGPGKEPPLLAQDPEGIRKQLQQELGEVSSRLEPYMAAKHQQVGWNLEGLRQQLKPYTAELMEQVGLSVQELQEQLRVVGEDTKAQLLGGVDEALNLLQDMQSRVLHHTDRVKELFHPYAERLVTGIGHHVQELHRSVAPHAAASPARLSRCVQTLSHKLTRKAKDLHTSIQRNLDQLRDELSAFIRVSTDGAEDGDSLDPQALSEEVRQRLQAFRHDTYLQIAAFTQAIDQETEEIQHQLAPPPPSHSAFAPELGHSDSNKALSRLQSRLDDLWEDIAYGLQDQGHSHLSDPEGHSG
B6: Ras-related protein Rab-8B (protein, UniProt P61028 1-204, looked up)
Ras-related protein Rab-8B: MAKTYDYLFKLLLIGDSGVGKTCLLFRFSEDAFNTTFISTIGIDFKIRTIELDGKKIKLQIWDTAGQERFRTITTAYYRGAMGIMLVYDITNEKSFDNIKNWIRNIEEHASSDVERMILGNKCDMNDKRQVSKERGEKLAIDYGIKFLETSAKSSTNVEEAFFTLARDIMTKLNRKMNDSNSSGAGGPVKITESRSKKTSFFRC
B7: Nucleolar and coiled-body phosphoprotein 1 (protein, UniProt E9Q5C9 1-702, looked up)
Nucleolar and coiled-body …: MADTGLRRVVPSDLYPLVLRFLRDSQLSEVASKFAKATGATQQDANASSLLDIYSFWLNRSTKAPKVKLQSNGPVTKKAKKETSSSDSSEDSSEDEDKKAQGLPTQKAAAQVKRASVPQHAGKAAAKASESSSSEESSEEEEEDKKKKPVQQKAAKPQAKAVRPPAKKAESSESDSDSDSDSSSEEETPQTQKPKAAVAAKAQTKAEAKPGTPAKAQPKVANGKAAASSSSSSSSDDSEEEKKAAAPPKKTVPKKQVVAKAPVKVAAAPTQKSSSSEDSSSEEEEGQRQPMKKKAGPYSSVPPPSVPLPKKSPGTQAPKKAAAQTQPADSSDDSSDDSDSSSEEEKKPPAKTVVSKTPAKAAPVKKKAESSSDSSDSDSSEDEAPAKPVSTTKSPKPAVTPKPSAAKAVTTPKQPAGSNQKPQSRKADSSSSEEESSSSEEEEASKKSATTPKAKVTAKAAPAKQAPQAAGDSSSDSDSSSSEEEEKTPKPPAKKKAAGGAVSTPAPGKKAEAKSSSSSSSSSSEDSSEEEKKKKPKATTPKIQASKANGTPASLNGKAAKESEEEEEEEETEEKKKAAGTKPGSGKKRKQNETADEATTPQAKKVKLETPNTFPKRKKGERRASSPFRRVREEEIEVDSRVADNSFDAKRGAAGDWGERANQVLKFTKGKSFRHEKTKKKRGSYRGGSISVQVNSVKFDSE
B8: DNA topoisomerase 3-alpha (protein, UniProt O70157 1-1003, looked up)
DNA topoisomerase 3-alpha: MIFPVTLLAFQWHRRPGGRALSRAAMEVAFRGVRKVLCVAEKNDAAKGIADLLSNGRMRRKEGLSKFNKIYEFDYHLYGQNVTMIMTSVSGHLLAHDFQMQFRKWQSCNPLVLFEAEIEKYCPENFIDIKKTLERETHHCQALVIWTDCDREGENIGFEIIHVCKAVKPNLRVLRARFSEITPHAVRTACENLTEPDQRVSDAVDVRQELDLRIGAAFTRFQTLRLQRIFPEVLAEQLISYGSCQFPTLGFVVERFKAIQAFVPEVFHKIKVTHDHKDGTVEFNWKRYRLFNHTACLVLYQLCMEDPMATVVEVRSKPKSKWRPQALDTVELEKLASRKLRINAKETMRIAEKLYTQGYISYPRTETNIFPKDLNLVALVEQQTVDPHWGAFAQTILERGGPTPRNGSKSDQAHPPIHPTKYTSGLQGDDRRLYEFIVRHFLACCSQDAQGQETTVEIDIAQERFVAHGLIILARNYLDVYPYDHWSDKLLPVYEQGSHFQPSTVEMVDGETSPPQLLTEADLIALMEKHGIGTDATHAEHIETIKARMYVGLTSDKRFLPGHLGMGLVEGYDSMGYEMSKPDLRAELEADLKLICEGKKDKFQVLRQQVQKYKQVFIEAVAKAKKLDEALSQYLGERTEMAQQEEIYPAMPEPVRKCPQCNKDMVLKTKKSGGFYLSCMGFPECRSAVWFPDSVLEASRDNSVCSVCQPPPVYRLKLKFKRGSLPPAMPLEFVGCIGGCDETLKEIFGLRFPRALPRASQPSGHLQASQALNRMDSSQHNLSQPLVNRHTRPSKTVAQALLPPTTAGESNSVTCNCGREAVLLTVRKQGPNQGRHFYKCSNGDCNFFLWADSSHSTGGGTPTSASGPPGSSVGCPSSVGSHMDGFGSLGSDSDGGTPCLCGQPAVTRTVQKDGPNKGRQFHTCAKPREQQCGFFQWVDENVAPGSFAAPAWPGGRGKAQRPEAASKRPRAGSSDAGSTVKKPRKCSLCHQPGHTRTFCPQNR

The first data set relates to coronal proteins on NPs. Also on record: species or system mouse. Particulars: HBPE-NPs incubated 1 h with IAV day 5 (V5) mouse sera, 20:1 NP:sera, centrifuged and washed.
Consider B1, for which the “V5 Sera_Nanoparticles Quantitative Value (Normalized Total Spectra)” value came to 28.286.

The same data set, now with this note: HBPE-NPs incubated with IAV day 5 (V5) mouse sera 1 h, 20:1 NP:sera, centrifuged and washed.
Regarding B2, the “V5 Sera_Nanoparticles Quantitative Value (Normalized Total Spectra)” value is 0.
B3: the “V5 Sera_Nanoparticles Quantitative Value (Normalized Total Spectra)” value was determined as 0.
On the same count and under the same terms, with B4 the figure was 0; with B5, 0; with B6, 0.
The same measure, in the same setting: with B7 the figure was 0; with B8, 0.

The data set is the same for the next values; noted with them: IAV day 5 (V5) mouse sera alone, no NPs (sera-only control).
B1: the “V5 Sera Alone (Control) Quantitative Value (Normalized Total Spectra)” value (from here on “V5 Sera Alone … (Normalized Total Spectra)”) is listed as 27.757.

The data set is the same for the next values; noted with them: IAV day 5 (V5) mouse sera alone, no NPs; mass spectrometry protein identification.
As for B2, the “V5 Sera Alone … (Normalized Total Spectra)” value is 0.9252.
As for B3, the “V5 Sera Alone … (Normalized Total Spectra)” value stood at 0.9252.
Take B4: the “V5 Sera Alone … (Normalized Total Spectra)” value is given as 0.9252.
For B5, the “V5 Sera Alone … (Normalized Total Spectra)” value is on record as 0.9252.
The same measure, in the same setting: in the case of B6 it was 0.9252; in that of B7, 0.9252.
On to B8, for which the “V5 Sera Alone … (Normalized Total Spectra)” value is recorded as 0.9252.
